Results of unrelated studies side by side (data: NIAID ChemDB).

Common to all: growth or infection tests; agent: Aspergillus fumigatus

Conditions beyond the fields shown may differ between rows. Percent inhibition refers to the dose given; in toxicity tests it is the harm to the cells. Blank or dashed fields: not listed here. A number after MIC or MFC names an inhibition level or a share of isolates. ECn is the concentration giving n% inhibition of infection, replication or growth. Zones are inhibition diameters on agar. a–b is a range or a potency band.

structure | strain | mutations | read by | conditions | endpoint | dose | result
COc1cc(O)c2c(c1)C1OC(=O)C[C@]1(C)OC2=O | CGMCC 3.5835 |  | resazurin |  | EC50 |  | >250 µM
Oc1cc(Cc2cc(O)c(O)c(Br)c2Br)c(Br)c(Br)c1O | HIC 6094 |  |  |  | EC50 |  | 12.5 µg/mL
Cc1cc(NS(=O)(=O)c2ccc(N)cc2)no1 | 20 isolates |  |  |  | Geometric mean MIC |  | 19.3 µg/mL
O=c1cc(-c2ccc3c(c2)OCO3)oc2c1ccc1occc12 |  |  | agar diffusion |  | zone | 50 µg/disc | 14 mm
N#CC1=C(N)N(c2nc(-c3ccc(O)cc3)cs2)C2=C(C(=O)CCC2)C1c1cc2cc(Cl)ccc2nc1F | MTCC 3008 |  | broth dilution |  | MIC |  | 1000 µg/mL
CN(C)CCCC1(c2ccc(F)cc2)OCc2cc(C#N)ccc21 | 10 clinical isolates |  |  |  | MFC |  | 625–2500 µg/mL
O=[N+]([O-])c1cc(C[Se]c2nnnn2C2CCCCC2)cc([N+](=O)[O-])c1 | 231 |  | broth dilution | 24 h | EC50 |  | >500 µM
CN(C/C=C/C#CC(C)(C)C)Cc1cccc2ccccc12 |  |  | broth dilution |  | MIC80 |  | >64 µg/mL
C[C@H]1[C@H](O)[C@@H](C)/C=C/C=C/C=C/C=C/C=C/C=C/C=C/[C@H](O[C@@H]2O[C@H](C)[C@@H](O)[C@H](N)[C@@H]2O)C[C@@H]2O[C@](O)(C[C@@H](O)C[C@@H](O)CC[C@H](O)[C@@H](O)C[C@@H](O)CC(=O)O[C@H]1C)C[C@H](O)[C@H]2C(=O)O | AB16.4 |  | agar |  | inhibition | 1 µg/mL | 0%
COc1ccc(-n2cnc3ccccc3c2=O)cc1OC | RCMB 002003 |  | agar diffusion / agar |  | zone | 10 mg/mL | 9.5 mm
C/C=C/c1ccc(O)c(OC)c1 |  |  | agar |  | MIC100 |  | 236 µg/mL
O=[N+]([O-])c1ccc(C[Se]c2nnnn2C2CCCCC2)c([N+](=O)[O-])c1 | 231 |  | broth dilution | 48 h | EC50 |  | >500 µM
COc1ccc2nc(F)c(C3C(C#N)=C(N)N(c4nc(-c5ccccc5)cs4)C4=C3C(=O)CCC4)cc2c1 | MTCC 3008 |  | broth dilution |  | MIC |  | 1000 µg/mL
C[C@@H](c1ncncc1F)[C@](O)(Cn1cncn1)c1ccc(F)cc1F |  |  | broth dilution |  | MIC80 |  | >64 µg/mL
CC1=C[C@H]2[C@@H](CC1)[C@](C)(O)CCCC2(C)C |  |  | agar diffusion |  | zone | 150 µg/mL | 10 mm
CN(C/C=C/C#CC(C)(C)C)Cc1cccc2ccccc12 |  | TR34 azole-resistant | broth dilution |  | MIC90 |  | 16 µg/mL
COC(=O)C(C(=O)OC)C(CC(=O)c1ccccc1)c1ccc2ccccc2c1 | ATCC 26934 |  |  |  | MIC |  | >50 µg/mL
CCOC(=O)C1=C(N)N(c2nc(-c3ccccc3)cs2)C2=C(C(=O)CCC2)C1c1cc2cc(Cl)ccc2nc1F | MTCC 3008 |  | broth dilution |  | MIC |  | 500 µg/mL
CN(C)C1=NC(=O)/C(=C/c2ccc(F)cc2)S1 | ATCC 26934 |  | broth dilution |  | MIC100 |  | >250 µg/mL
COc1cnc2c3c(nccc13)C1SC=CC1C2=O |  |  |  |  | MIC80 |  | >64 µg/mL
COc1ccc(-n2c(-c3ccc(Cl)cc3)nc3ccccc3c2=O)cc1OC | RCMB 002003 |  | agar diffusion / agar |  | zone | 10 mg/mL | 9.8 mm
CC/C=C/C(CC)CCC[C@@]1(CC)C[C@H](CC)[C@H](CC(=O)O)OO1 |  |  |  |  | inhibition | 5 µg/mL | 50%
C[C@@H]1[C@H](O)[C@@H](C)/C=C/C=C/C=C/C=C/C=C/C=C/C=C/[C@H](O[C@@H]2O[C@H](C)[C@@H](O)[C@H](N)[C@@H]2O)C[C@@H]2O[C@](O)(C[C@@H](O)C[C@@H](O)[C@H](O)CC[C@@H](O)C[C@@H](O)CC(=O)O[C@H]1C)C[C@H](O)[C@H]2C(=O)O |  |  | broth dilution |  | EC50 |  | 0.86 µg/mL
CC[C@@H]([C@H](C)O)n1ncn(-c2ccc(N3CCN(c4ccc(OC[C@@H]5CO[C@@](Cn6cncn6)(c6ccc(F)cc6F)C5)cc4)CC3)cc2)c1=O |  |  |  |  | MIC50 |  | 16 µg/mL
C[C@@H]1[C@H](O)[C@@H](C)/C=C/C=C/C=C/C=C/C=C/C=C/C=C/[C@H](O[C@@H]2O[C@H](C)[C@@H](O)[C@H](N)[C@@H]2O)C[C@@H]2O[C@](O)(C[C@@H](O)C[C@@H](O)[C@H](O)CC[C@@H](O)C[C@@H](O)CC(=O)O[C@H]1C)C[C@H](O)[C@H]2C(=O)O | 27 isolates |  |  |  | Geometric mean MIC |  | 0.34 µg/mL
COc1cccc(C(CC(=O)c2ccccc2)C(C#N)C#N)c1OC | ATCC 26934 |  |  |  | MIC |  | >50 µg/mL
CN(C/C=C/C#CC(C)(C)C)Cc1cccc2ccccc12 | 60 isolates |  |  |  | MIC90 |  | >16 µg/mL
COC(=O)C(C(=O)OC)C(CC(=O)c1ccccc1)c1cccc(OC)c1OC | ATCC 26934 |  |  |  | MIC |  | >50 µg/mL
CC[C@@H]1C[C@@]2(CC)O/C(=C\C(=O)OC)[C@@]3(CC)[C@H](CC)[C@]1(C)[C@@]23C |  |  | broth dilution | clinical isolate | MIC80 |  | 13.1 µM
O=[N+]([O-])c1cc(CSc2nnnn2-c2ccc(Cl)c(Cl)c2)cc([N+](=O)[O-])c1 | 231 |  | broth dilution | 48 h | EC50 |  | >125 µM
COc1cc(Cc2cnc(N)nc2N)cc(OC)c1OC | 20 isolates |  |  |  | Geometric mean MIC |  | >16 µg/mL
CC[C@@H]([C@H](C)O)n1ncn(-c2ccc(N3CCN(c4ccc(OC[C@@H]5CO[C@@](Cn6cncn6)(c6ccc(F)cc6F)C5)cc4)CC3)cc2)c1=O |  |  |  |  | MIC50 |  | 0.125–0.5 µg/mL
C[C@@H](n1ncc2cc(Br)ccc21)[C@](O)(Cn1cncn1)c1ccc(F)cc1F | ATCC MYA-1163 |  |  |  | MIC90 |  | 0.5 µg/mL
CCc1ccc(O)c(OC)c1 |  |  | agar |  | MIC50 |  | 74 µg/mL
COc1ccc(CCn2cnc3c(Cl)cccc3c2=O)cc1 | RCMB 002003 |  | agar diffusion / agar |  | zone | 10 mg/mL | 10.4 mm
CCCCCOc1ccc(-c2ccc(-c3ccc(C(=O)N[C@H]4C[C@@H](O)[C@@H](O)NC(=O)[C@@H]5[C@@H](O)[C@@H](C)CN5C(=O)[C@H]([C@H](C)O)NC(=O)[C@H]([C@H](O)[C@@H](O)c5ccc(O)cc5)NC(=O)[C@@H]5C[C@@H](O)CN5C(=O)[C@H]([C@H](C)O)NC4=O)cc3)cc2)cc1 |  |  |  |  | MIC50 |  | 0.015 µg/mL
O=[N+]([O-])c1cc(CSc2cccc[n+]2[O-])cc([N+](=O)[O-])c1 | 231 |  | broth dilution | 24 h | EC50 |  | >500 µM
OC(Cn1cncn1)(Cn1cncn1)c1ccc(F)cc1F | NFI 0239 |  |  |  | MIC |  | >128 µg/mL
C[C@H]1[C@H](O)[C@@H](C)/C=C/C=C/C=C/C=C/C=C/C=C/C=C/[C@H](O[C@@H]2O[C@H](C)[C@@H](O)[C@H](N)[C@@H]2O)C[C@@H]2O[C@](O)(C[C@@H](O)C[C@@H](O)CC[C@H](O)[C@@H](O)C[C@@H](O)CC(=O)O[C@H]1C)C[C@H](O)[C@H]2C(=O)O | 156 isolates |  |  |  | MIC50 |  | 0.5 µg/mL
C[C@@H](c1ncncc1F)[C@](O)(Cn1cncn1)c1ccc(F)cc1F |  |  |  |  | MIC90 |  | 0.5–2 µg/mL
Nc1ccc(S(=O)(=O)c2ccc(N)cc2)cc1 | 20 isolates |  |  |  | Geometric mean MIC |  | >16 µg/mL
COc1cc(O)cc(-c2cc(O)c(O)cc2C)c1 | CGMCC 3.5835 |  | resazurin |  | EC50 |  | >250 µM
COc1cc2cc(/C=C/C(=O)c3ccccc3)c(Cl)nc2cc1OC | ATCC 26934 |  |  |  | MIC |  | >50 µg/mL
O=C(/C=C/c1ccccc1)c1c(O)cc2occc2c1O |  |  | agar diffusion |  | zone | 50 µg/disc | 0 mm
C[C@H]1[C@H](O)[C@@H](C)/C=C/C=C/C=C/C=C/C=C/C=C/C=C/[C@H](O[C@@H]2O[C@H](C)[C@@H](O)[C@H](N)[C@@H]2O)C[C@@H]2O[C@](O)(C[C@@H](O)C[C@@H](O)CC[C@H](O)[C@@H](O)C[C@@H](O)CC(=O)O[C@H]1C)C[C@H](O)[C@H]2C(=O)O | ATCC 26934 |  | broth dilution |  | MIC100 |  | 0.5 µg/mL
O=[N+]([O-])c1cc(CSc2nnnn2C2CCCCC2)cc([N+](=O)[O-])c1 | 231 |  | broth dilution | 48 h | EC50 |  | >500 µM
C=CCSSSSCC=C | 28 isolates |  |  |  | MIC80 |  | 4 µg/mL
Nc1ccc(S(=O)(=O)Nc2ncccn2)cc1 | 20 isolates |  |  |  | Geometric mean MIC |  | 39.2 µg/mL
O=C(/C=C/c1ccco1)c1ccc(Cl)cc1Cl | ATCC 26934 |  |  |  | MIC |  | >50 µg/mL
N#CC1=C(N)N(c2nc(-c3ccc(Cl)cc3)cs2)C2=C(C(=O)CCC2)C1c1cc2ccccc2nc1F | MTCC 3008 |  | broth dilution |  | MIC |  | 500 µg/mL
O=C(O)/C=C/c1ccc(O)cc1 |  |  | agar |  | MIC100 |  | >1000 µg/mL
O=C(/C=C/c1ccc2c(c1)OCO2)c1ccc2occc2c1O |  |  | agar diffusion |  | zone | 50 µg/disc | 0 mm
Oc1cc(O)cc(O)c1 |  |  | agar |  | MIC100 |  | >1000 µg/mL
CN(C/C=C/C#CC(C)(C)C)Cc1cccc2ccccc12 |  |  | broth dilution / agar |  | MIC100 |  | 200 µg/mL
O=S(=O)(O)CCNCl | ATCC 13073 |  |  |  | MIC90 |  | 35.4 µM
COc1cc(/C=C2\SC(N(C)C)=NC2=O)cc(OC)c1OC | ATCC 26934 |  | broth dilution |  | MIC100 |  | >250 µg/mL
O=C(/C=C/c1ccc2ccccc2c1)c1ccccc1 | ATCC 26934 |  |  |  | MIC |  | >50 µg/mL
CC(=O)c1ccccc1O |  |  | agar |  | MIC50 |  | 70 µg/mL
O=C(O)Cc1ccc(-n2cnc3ccccc3c2=O)cc1 | RCMB 002003 |  | agar diffusion / agar |  | zone | 10 mg/mL | 12.1 mm
CC(=O)OC[C@H]1O[C@@H](Sc2nnc(-c3cccnc3)n2/N=C/c2ccccc2)[C@H](OC(C)=O)[C@@H](OC(C)=O)[C@@H]1OC(C)=O |  |  | agar diffusion / agar |  | zone | 2.5 mg/mL | 1–5 mm
Oc1cc(O)c2c(c1)O[C@H](c1ccc(O)c(O)c1)[C@@H](O)C2 |  |  |  |  | inhibition | 1000 µg/mL | 95%
C=CCSSSCC=C | 28 isolates |  |  |  | MIC80 |  | 8 µg/mL
COc1cc(C)c2c(=O)c3c(O)cc(O)cc3oc2c1 | CGMCC 3.5835 |  | resazurin |  | EC50 |  | >250 µM

For reference, 4 entries again:

structure | strain | mutations | read by | conditions | endpoint | dose | result
N#CC1=C(N)N(c2nc(-c3ccc(O)cc3)cs2)C2=C(C(=O)CCC2)C1c1cc2cc(Cl)ccc2nc1F | MTCC 3008 |  | broth dilution |  | MIC |  | 1000 µg/mL
CCCCCOc1ccc(-c2ccc(-c3ccc(C(=O)N[C@H]4C[C@@H](O)[C@@H](O)NC(=O)[C@@H]5[C@@H](O)[C@@H](C)CN5C(=O)[C@H]([C@H](C)O)NC(=O)[C@H]([C@H](O)[C@@H](O)c5ccc(O)cc5)NC(=O)[C@@H]5C[C@@H](O)CN5C(=O)[C@H]([C@H](C)O)NC4=O)cc3)cc2)cc1 |  |  |  |  | MIC50 |  | 0.015 µg/mL
CCOC(=O)C1=C(N)N(c2nc(-c3ccccc3)cs2)C2=C(C(=O)CCC2)C1c1cc2cc(Cl)ccc2nc1F | MTCC 3008 |  | broth dilution |  | MIC |  | 500 µg/mL
O=S(=O)(O)CCNCl | ATCC 13073 |  |  |  | MIC90 |  | 35.4 µM